Sequence variants of PSTVd loop 6 after infection

Values reported by Wu et al. 2024 (doi:10.1371/journal.ppat.1012142).

Region: loop 6 of PSTVd (intermediate strain), upper and lower strand joined, each 5' to 3', the first 5 letters being the upper strand, closing pairs included. Wild type: UGACCGCGAG. Varied positions (N): UNNNCGNNNG.

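Three N. benthamiana plants were inoculated with the whole mutant pool. Samples came from the inoculated region at 5 days, the leaf margin at 10 and upper systemic leaves at 12.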

Values are reads per thousand in the sample; higher means more abundant, 0 means not found. Each site shows the three plants. "Pool" is the share in the plasmid pool used as inoculum, on the same scale. The inoculated region was read from the minus strand, the other sites from the plus strand. With 36,220-57,551 reads a sample, very low values are single reads.

UCACCGAAUG (pool 0.431): inoculated region 0.174 / 0.0180 / 0.0553; leaf margin 0 / 0 / 0; systemic leaves 0 / 0 / 0.
UUCCCGUUCG (pool 0.183): inoculated region 0.0521 / 0.0359 / 0.0922; leaf margin 0.0276 / 0 / 0; systemic leaves 0 / 0 / 0.
UUUUCGUAUG (pool 0.235): inoculated region 0.122 / 0.0539 / 0.0922; leaf margin 0.387 / 0 / 0; systemic leaves 0 / 0 / 0.
UCACCGUUGG (pool 0.275): inoculated region 0.139 / 0.0359 / 0.129; leaf margin 0 / 0 / 0.0232; systemic leaves 0 / 0 / 0.
UCUGCGUGAG (pool 0.340): inoculated region 0.139 / 0.0898 / 0.0922; leaf margin 0.0276 / 0 / 0.0232; systemic leaves 0 / 0 / 0.
UCGGAGCGUU (pool 0.0131): inoculated region 0 / 0 / 0; leaf margin 0 / 0 / 0; systemic leaves 0 / 0 / 0.
UUCACGCGCG (pool 0.261): inoculated region 0.0695 / 0.144 / 0.129; leaf margin 0 / 0 / 0; systemic leaves 0 / 0 / 0.
UGUUCGGGUG (pool 0.301): inoculated region 0.747 / 0.611 / 0.461; leaf margin 0.166 / 0.0757 / 0.0928; systemic leaves 0 / 0 / 0.
UUAUCGUUGG (pool 0.301): inoculated region 0.122 / 0.0539 / 0.0553; leaf margin 0 / 0 / 0; systemic leaves 0 / 0 / 0.
UACCCGUGGG (pool 0.170): inoculated region 0.156 / 0.216 / 0.0553; leaf margin 0.0276 / 0 / 0.0232; systemic leaves 0 / 0 / 0.
UGUUCGCUAG (pool 0.235): inoculated region 0.0869 / 0.0539 / 0.111; leaf margin 0 / 0 / 0; systemic leaves 0 / 0 / 0.
UAGGCGUCUG (pool 0.275): inoculated region 0.104 / 0.0359 / 0.0738; leaf margin 0 / 0 / 0; systemic leaves 0 / 0 / 0.
UAUUCGGCAG (pool 0.288): inoculated region 0.504 / 0.575 / 0.609; leaf margin 0.138 / 0.0757 / 0.139; systemic leaves 0 / 0 / 0.
UCCACGGCCG (pool 0.222): inoculated region 0.0695 / 0.0359 / 0.0553; leaf margin 0 / 0 / 0; systemic leaves 0 / 0.0404 / 0.
GGCCCGCGAG (pool 0.0131): inoculated region 0 / 0 / 0; leaf margin 0 / 0 / 0; systemic leaves 0 / 0 / 0.
UGAUCGGGCG (pool 0.144): inoculated region 0.0869 / 0.0898 / 0.0738; leaf margin 0 / 0 / 0; systemic leaves 0 / 0 / 0.
UAGACGGGUG (pool 0.248): inoculated region 0.122 / 0.0719 / 0.0738; leaf margin 0 / 0 / 0; systemic leaves 0 / 0.0404 / 0.0410.
UCUACGCGUG (pool 0.157): inoculated region 0.0521 / 0.0539 / 0.0922; leaf margin 0.0828 / 0 / 0.0928; systemic leaves 0 / 0 / 0.
UGGUCGUGAG (pool 0.248): inoculated region 0.104 / 0.0539 / 0.166; leaf margin 0.0552 / 0 / 0; systemic leaves 0 / 0 / 0.
UGCGCGAAGG (pool 0.157): inoculated region 0.104 / 0.0359 / 0.0369; leaf margin 0 / 0 / 0; systemic leaves 0 / 0 / 0.
UUAGCGCACG (pool 0.183): inoculated region 0.156 / 0.162 / 0.0369; leaf margin 0 / 0 / 0; systemic leaves 0 / 0 / 0.
UCUGCGAUUG (pool 0.445): inoculated region 0.0869 / 0.0359 / 0.111; leaf margin 0 / 0 / 0; systemic leaves 0 / 0 / 0.
UUUGAGGAGG (pool 0.0131): inoculated region 0 / 0 / 0; leaf margin 0 / 0 / 0; systemic leaves 0 / 0 / 0.
UGCCCGUAUG (pool 0.261): inoculated region 0.0869 / 0.162 / 0.111; leaf margin 0.304 / 0 / 0; systemic leaves 0 / 0 / 0.
UUGCCGGCAG (pool 0.209): inoculated region 0.104 / 0.108 / 0.0553; leaf margin 0 / 0 / 0; systemic leaves 0 / 0 / 0.
UGUUCGAGCG (pool 0.183): inoculated region 0.0869 / 0.108 / 0.111; leaf margin 0 / 0 / 0.0232; systemic leaves 0 / 0 / 0.
UCUGCGGAUG (pool 0.196): inoculated region 0.0521 / 0.0898 / 0.184; leaf margin 0.0276 / 0 / 0; systemic leaves 0 / 0 / 0.

A selection of 2 entries from above:

{"sequence": "UCUGCGUGAG", "pool": "0.340", "inoculated region": "0.139 / 0.0898 / 0.0922", "leaf margin": "0.0276 / 0 / 0.0232", "systemic leaves": "0 / 0 / 0"}
{"sequence": "UAGACGGGUG", "pool": "0.248", "inoculated region": "0.122 / 0.0719 / 0.0738", "leaf margin": "0 / 0 / 0", "systemic leaves": "0 / 0.0404 / 0.0410"}

Wild type was 20.7 per thousand in the pool and the most common sequence in every sample (inoculated region 195, 198, 203; leaf margin 629, 591, 734; systemic leaves 942, 870, 868). The authors trace changes outside the varied positions to PCR and sequencing errors or to mutation in the plant; presence does not show that a variant is infectious alone.